This is an account of results in patent US20060165717A1 (priority 2005, published 2006).

The test system of the assay is Balb/c mice. Put plainly: Immunization of mice with recombinant Helicobacter pylori urease vaccine compositions; urease-specific IgG1 and IgG2a by ELISA. The note with it: 10 μg urease + 200 μg adjuvant. On the technique in general: In an ELISA, binding on a coated surface is turned into a signal by an enzyme label.
The mark [1] stands for this setting: Exp. 1, newborn (1-week-old) Balb/c mice, 2 subcutaneous injections D0, D21.
[2] abbreviates: Exp. 2, newborn (1-week-old) Balb/c mice, 2 subcutaneous injections D0, D21.
[3] abbreviates: Exp. 3, newborn (1-week-old) Balb/c mice, 3 subcutaneous injections D0, D21, D36.
The mark [4] stands for this setting: Exp. 4, newborn (1-week-old) Balb/c mice, 3 subcutaneous injections D0, D21, D36.

As for “3β-[N-(N′,N′-dimethyl-aminoethane)carbamoyl]cholesterol”, under setting [1], the “IgG1 After 1st booster” value is reported as 4.89 log10 of the ELISA titers, the “IgG1 After 1st inj.” value was 3.74 log10 of the ELISA titers, the “IgG2a After 1st booster” value is given as 2.41 log10 of the ELISA titers and the “IgG2a After 1st inj.” value was 2.18 log10 of the ELISA titers. Besides, under setting [2], the “IgG1 After 1st booster” value is 4.50 log10 of the ELISA titers, the “IgG1 After 1st inj.” value is given as 3.07 log10 of the ELISA titers, the “IgG2a After 1st booster” value is 2.69 log10 of the ELISA titers and the “IgG2a After 1st inj.” value is listed as 1.30 log10 of the ELISA titers. Moreover, under setting [3], the “IgG1 After 1st booster” value is recorded as 4.36 log10 of the ELISA titers, the “IgG1 After 1st inj.” value is on record as 3.16 log10 of the ELISA titers, the “IgG1 After 2nd booster” value is listed as 4.73 log10 of the ELISA titers and the “IgG2a After 1st booster” value was 2.78 log10 of the ELISA titers. In addition, under setting [3], the “IgG2a After 1st inj.” value is reported as 2.70 log10 of the ELISA titers and the “IgG2a After 2nd booster” value is recorded as 3.55 log10 of the ELISA titers. Besides, under setting [4], the “IgG1 After 1st inj.” value is reported as 3.22 log10 of the ELISA titers, the “IgG1 After 2nd booster” value is given as 4.64 log10 of the ELISA titers, the “IgG2a After 1st inj.” value was 1.79 log10 of the ELISA titers and the “IgG2a After 2nd booster” value is 3.32 log10 of the ELISA titers. Besides, for the setting “adult Balb/c mice”, the “antibody production compared with aluminum oxyhydroxide, in words” value is given as “as good an adjuvant as aluminum oxyhydroxide”. Where the note is “newborn (1-week-old) Balb/c mice”, the “amount of urease-specific antibodies induced, compared with aluminum oxyhydroxide, in words” value is “greater amount of antibodies”.
